Single amino acid changes in Zika NS2B-NS3 and viral growth

The scanned region of Zika virus MR766 is shown below (positions 1-308): NS2B is 2-131, NS3 begins at position 132.
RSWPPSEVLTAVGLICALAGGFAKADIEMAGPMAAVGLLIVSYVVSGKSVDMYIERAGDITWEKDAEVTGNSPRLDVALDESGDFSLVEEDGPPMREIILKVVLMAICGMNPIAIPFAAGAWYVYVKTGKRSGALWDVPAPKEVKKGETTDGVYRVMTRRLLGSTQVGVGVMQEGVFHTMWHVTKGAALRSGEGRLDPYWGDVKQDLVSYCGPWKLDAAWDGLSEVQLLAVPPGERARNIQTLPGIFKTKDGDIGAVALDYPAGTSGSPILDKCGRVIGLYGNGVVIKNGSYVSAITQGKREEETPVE

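Mutant virus pools were grown in human Huh-7.5 cells. Deep sequencing gave the change in frequency of each mutant relative to wild type, averaged over three replicate libraries (two for positions 207-308). The aim was to find sites where inhibitor-binding pockets cannot change.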

Values are log2 effects on growth: 0 is wild type, lower means poorer growth.
Each entry names the wild-type residue, its position and the residue put in its place.
The region was split into three libraries (1-103, 104-206, 207-308).
An asterisk is a stop codon; stop codons read about -7, near the floor of the assay.
Six mutants with high scores were retested singly and none clearly outgrew wild type, so positive values are not proof of better growth.
Position 1 still belongs to NS2A. In the paper, -1 or higher counts as tolerated.

change,log2 effect
S2H,-6.20
V8S,-2.00
G13L,-7.27
C16V,-6.58
G20N,-4.84
G20W,-6.49
D26M,-4.79
A30P,-2.34
A34*,-6.72
G37M,-5.22
V41H,-5.25
S46P,-7.09
S49K,-5.85
I54C,-5.47
T69K,-5.98
F85V,-5.91
L87A,-7.20
E89Q,-1.44
P93A,-4.27
R96G,-4.93
R96Q,-2.54
I99N,-5.61
A106V,-0.61
C108R,-6.66
I115E,-5.00
I115Q,-5.55
G120V,-1.06
W122N,-5.27
Y125N,-5.98
A140Y,-4.84
G147C,-4.11
L162D,-5.16
S164F,-2.79
G168*,-4.43
V171P,-6.59
E174D,-3.11
G175C,-4.16
F177R,-6.76
A188L,-4.78
G194K,-5.51
L196Q,-6.34
D202V,-6.25
K204I,-7.21
D206C,-6.23
L207S,-8.39
V208E,-7.79
V208F,-7.79
Y210L,-8.04
K215A,-4.72
A218N,-6.59
S224V,-6.75
A230W,-4.33
A237F,-1.21
Q241I,-5.95
Q241P,-7.88
I246V,0.83
G252F,-1.15
D253E,0.08
V257H,-4.98
Y261F,-0.46
G267Q,-4.76
K273C,-1.35
G275L,-5.59
G282P,-5.22
V286E,-5.59
G290R,-6.90
S294*,-6.83
R301S,-7.22
E303I,-0.56
E304*,-7.72
E304T,-0.50
E304Y,-1.47
P306N,-2.79

The last 10 entries again:

change,log2 effect
G282P,-5.22
V286E,-5.59
G290R,-6.90
S294*,-6.83
R301S,-7.22
E303I,-0.56
E304*,-7.72
E304T,-0.50
E304Y,-1.47
P306N,-2.79

The measurements come from Ni et al. 2025 (doi:10.1038/s41467-025-63602-z).